Earlier results as cited in patent US20260382535A1, “DELIVERY DEVICES FOR ANTI-HIV COMPOUNDS” (published 2026).

Legend:
HIV-1 = settings: 0.1 nM plasma concentration target
reverse transcriptase = settings: background
[1] = human

C#C[C@]1(CO)O[C@@H](n2cnc3c(N)nc(F)nc32)C[C@@H]1O
reduction in plasma HIV1-RNA (HIV-1): greater than a one-log reduction in plasma HIV1-RNA
barrier to resistance (reverse transcriptase): high barrier to resistance
potency (reverse transcriptase): high potency
clearance in humans [1]: extended clearance in humans
clearance in humans ([1]; listed as Islatravir): slow human clearance

Where two headings read alike, the source gives them in different places.
